# Molecular target: S1-T323A/S325A
row,Binder,binding result
1,"Dendritic cell-specific intercellular adhesion molecule-3-grabbing nonintegrin expressed on cells (receptor, whole, on cells; also called DC-SIGN; CD209) MSDSKEPRLQQLGLLEEEQLRGLGFRQTRGYKSLAGCLGHGPLVLQLLSFTLLAGLLVQVSKVPSSISQEQSRQDAIYQNLTQLKAAVGELSEKSKLQEIYQELTQLKAAVGELPEKSKLQEIYQELTRLKAAVGELPEKSKLQEIYQELTWLKAAVGELPEKSKMQEIYQELTRLKAAVGELPEKSKQQEIYQELTRLKAAVGELPEKSKQQEIYQELTRLKAAVGELPEKSKQQEIYQELTQLKAAVERLCHPCPWEWTFFQGNCYFMSNSQRNWHDSITACKEVGAQLVVIKSAEEQNFLQLQSSRSNRFTWMGLSDLNQEGTWQWVDGSPLLPSFKQYWNRGEPNNVGEEDCAEFSGNGWNDDKCNLAKFWICKKSAASCSRDEEQFLSPAPATPNPPPA",binds
2,"Liver and lymph node sinusoidal endothelial cell C-type lectin expressed on cells (receptor, whole, on cells; also called LSECtin; CLEC4G) MDTTRYSKWGGSSEEVPGGPWGRWVHWSRRPLFLALAVLVTTVLWAVILSILLSKASTERAALLDGHDLLRTNASKQTAALGALKEEVGDCHSCCSGTQAQLQTTRAELGEAQAKLMEQESALRELRERVTQGLAEAGRGREDVRTELFRALEAVRLQNNSCEPCPTSWLSFEGSCYFFSVPKTTWAAAQDHCADASAHLVIVGGLDEQGFLTRNTRGRGYWLGLRAVRHLGKVQGYQWVDGVSLSFSHWNQGEPNDAWGRENCVMMLHTGLWNDAPCDSEKDGWICEKRHNC",binds
3,"Liver/lymph node-specific intercellular adhesion molecule-3-grabbing integrin expressed on cells (receptor, whole, on cells; also called L-SIGN; CLEC4M) MSDSKEPRVQQLGLLEEDPTTSGIRLFPRDFQFQQIHGHKSSTGCLGHGALVLQLLSFMLLAGVLVAILVQVSKVPSSLSQEQSEQDAIYQNLTQLKAAVGELSEKSKLQEIYQELTQLKAAVGELPEKSKLQEIYQELTRLKAAVGELPEKSKLQEIYQELTRLKAAVGELPEKSKLQEIYQELTRLKAAVGELPEKSKLQEIYQELTELKAAVGELPEKSKLQEIYQELTQLKAAVGELPDQSKQQQIYQELTDLKTAFERLCRHCPKDWTFFQGNCYFMSNSQRNWHDSVTACQEVRAQLVVIKTAEEQNFLQLQTSRSNRFSWMGLSDLNQEGTWQWVDGSPLSPSFQRYWNSGEPNNSGNEDCAEFSGSGWNDNRCDVDNYWICKKPAACFRDE",binds
